# In patent publication US20200207841A1:
# Target: EDIII-DV2 (Dengue virus serotype 2 (DV2)) (UniProt P14337)
# Assay: competition ELISA, in solution at equilibrium
substance,measurement,value
4E11 VL-S60W (antibody),Kd,6.3 nM
